Compound potency records, mixed from different reports. Data source: NIAID ChemDB in PubChem.

All rows: whole-cell or culture tests; organism: HIV-1; cells: MT-4; endpoint: EC50

ECn is the concentration giving n% inhibition of infection, replication or growth. Rows are shuffled and stem from different studies.

{"smiles": "C[C@@H]1CCO[C@H]2Cn3cc(C(=O)NCc4ccc(F)cc4F)c(=O)c(O)c3C(=O)N12", "strain or isolate": "HXB2", "method": "luminescence", "result": "0.0019 µM"}
{"smiles": "COC(=O)N1CCn2c(nc(C(=O)NCc3ccc(F)cc3)c(O)c2=O)C1CN(C)C", "method": "p24", "result": "<50 µM"}
{"smiles": "C=C(CC[C@](C)(O)[C@H]1C(=O)C[C@H]2[C@@H]3[C@H](O)C[C@H]4CC(=O)CC[C@]4(C)[C@H]3CC[C@@]21C)C(C)C", "strain or isolate": "NL4-3", "method": "MTT", "result": "6.25 µM"}
{"smiles": "O=C(NCc1ccc(F)cc1)c1nc2n(c(=O)c1O)CCOCC2", "method": "p24", "result": "<50 µM"}
{"smiles": "Cc1ccc(-c2c(C)c3c(c(C)c2[C@H](OC(C)(C)C)C(=O)O)CN(C(=O)N2CCCCCCC2)C3)cc1", "strain or isolate": "IIIB", "method": "luciferase", "result": "0.036 µM"}
{"smiles": "CCOP(=O)(CC[C@]1(C(F)(F)F)CC[C@H](n2cnc3c(N)ncnc32)C1)OCC", "method": "MTT", "result": "9.2 µM"}
{"smiles": "CNc1nc(Nc2ccc(C#N)cc2)nc(Oc2ccc3ccccc3c2)c1C(C)C", "strain or isolate": "IIIB", "mutations": "K103N + Y181C", "method": "MTT", "result": ">25.15 µM"}
{"smiles": "O=C(/C=C/c1ccc(Cl)cc1)c1ccccc1O", "strain or isolate": "IIIB", "method": "MTT", "result": ">400 µM"}
{"smiles": "O=S(=O)(O)c1cc(S(=O)(=O)O)c2cc(OS(=O)(=O)c3cccc4c(S(=O)(=O)Oc5ccc6cc(S(=O)(=O)O)cc(S(=O)(=O)O)c6c5)cccc34)ccc2c1", "strain or isolate": "HE", "method": "cytopathic effect / MTT", "result": "8.1 µM"}
{"smiles": "Cc1c(-c2c(C)c3c(c(C)c2[C@H](OC(C)(C)C)C(=O)O)CN(C(=O)CC(C)(C)C)C3)cc(F)c2c1CCCO2", "strain or isolate": "IIIB", "method": "luciferase", "result": "0.036 µM"}
{"smiles": "Nc1nc2c(ncn2C2CC(O)C(COP(=O)(O)OP(=O)(O)OC3CC(n4cnc5c(=O)[nH]c(N)nc54)OC3COP(=O)(O)OP(=O)(O)OC3CC(n4cnc5c(=O)[nH]c(N)nc54)OC3COP(=O)(O)O)O2)c(=O)[nH]1", "strain or isolate": "IIIB", "method": "cytopathic effect / MTT", "result": ">100 µM"}
{"smiles": "Nc1ncnc2c1ccn2[C@H]1C=C[C@@H](CO)C1", "strain or isolate": "IIIB", "method": "cytopathic effect / trypan blue", "result": ">200 µM"}
{"smiles": "COc1ccc(-c2c3c(n([C@@H]4O[C@H](COC(C)=O)[C@@H](OC(C)=O)[C@H](OC(C)=O)[C@@H]4OC(C)=O)c(=S)c2C#N)-c2ccccc2C3)cc1", "method": "cytopathic effect / MTT", "result": "1.79 µM"}
{"smiles": "Cc1cn([C@H]2C[C@H](N=[N+]=[N-])[C@@H](CO)O2)c(=O)[nH]c1=O", "method": "MTT", "result": "0.023 µM"}
{"smiles": "Cc1cc(C#N)cc(C)c1Oc1nc(Nc2ccc(C#N)cc2)nc(N)c1Br", "strain or isolate": "IIIB", "method": "MTT", "result": "0.003 µM"}
{"smiles": "Cc1c(Cl)nc(Nc2ccc(C#N)cc2)nc1Oc1ccc2ccccc2c1", "strain or isolate": "IIIB", "mutations": "K103N + Y181C", "method": "MTT", "result": "19.91 µM"}
{"smiles": "COC(=O)C(C)(C)NP(=O)(OC[C@H]1C=C[C@@H](n2ccc3c(N)ncnc32)C1)Oc1ccccc1", "strain or isolate": "IIIB", "method": "cytopathic effect / trypan blue", "result": "0.3 µM"}
{"smiles": "O=C(COc1nsnc1-c1cccc2ccccc12)Nc1ccccc1[N+](=O)[O-]", "strain or isolate": "IIIB", "method": "MTT", "result": "16 µM"}
{"smiles": "CCOCn1c(C(=O)C=C(C)C)c(CC)c(=O)[nH]c1=O", "strain or isolate": "RT-Y181C N119", "method": "cytopathic effect / MTT", "result": ">100 µM"}
{"smiles": "COC(=O)[C@H](Cc1ccccc1)NP(=O)(OC[C@@H]1C=C[C@H](n2ccc3c(N)ncnc32)C1)Oc1ccccc1", "strain or isolate": "IIIB", "method": "cytopathic effect / trypan blue", "result": "29 µM"}
{"smiles": "COc1ccc(C(=O)/C=C/c2ccccc2)c(O)c1", "strain or isolate": "IIIB", "method": "MTT", "result": ">400 µM"}
{"smiles": "CCc1c(Sc2ccccc2)n(COCc2ccccc2)c(=O)[nH]c1=O", "strain or isolate": "A018A", "method": "p24", "result": "0.0095 µM"}
{"smiles": "COc1ccccc1C(C#N)c1nc(SC(C)C)[nH]c(=O)c1C", "mutations": "L100I", "method": "MTT", "result": "0.04 µM"}
{"smiles": "Nc1ncnc2c1ccn2[C@@H]1C=C[C@H](CO)C1", "strain or isolate": "IIIB", "method": "cytopathic effect / trypan blue", "result": "280 µM"}
{"smiles": "CCOCn1c(C(=O)C2=CCCCC2)c(CC)c(=O)[nH]c1=O", "strain or isolate": "RT-Y181C N119", "method": "cytopathic effect / MTT", "result": ">100 µM"}
{"smiles": "O=C(/C=C/c1ccc(Br)cc1)c1ccccc1O", "strain or isolate": "IIIB", "method": "MTT", "result": ">400 µM"}
{"smiles": "Nc1nc2c(ncn2C2CC(O)C(COP(O)(=S)OC3CC(n4cnc5c(=O)[nH]c(N)nc54)OC3CO)O2)c(=O)[nH]1", "strain or isolate": "IIIB", "method": "cytopathic effect / MTT", "result": ">50 µM"}
{"smiles": "CCCCCCNC(=O)P(=O)(O)OC1OC(n2cc(C)c(=O)[nH]c2=O)CC1N=[N+]=[N-]", "strain or isolate": "TKV-4046", "method": "p24 / ELISA / antigen", "result": "0.11 µM"}
{"smiles": "O=C(COc1nsnc1-c1cccc2ccccc12)Nc1ccccn1", "strain or isolate": "IIIB", "method": "MTT", "result": ">13 µM"}
{"smiles": "Cc1nnc(C(=O)N(C)C2CN(C)CCn3c2nc(C(=O)NCc2ccc(F)cc2)c(O)c3=O)o1", "method": "p24", "result": "<1 µM"}
{"smiles": "COc1ccc(C(=O)/C=C/c2ccc(OC)c(OC)c2)c(O)c1", "strain or isolate": "IIIB", "method": "MTT", "result": ">400 µM"}
{"smiles": "COc1ccc2c(c1)c(CC(=O)O)c(C)n2C(=O)c1ccc(Cl)cc1", "strain or isolate": "IIIB", "method": "XTT / p24", "result": "10 µM"}
{"smiles": "CCc1c(Cl)nc(Nc2ccc(C#N)cc2)nc1Oc1ccc2ccccc2c1Cl", "strain or isolate": "IIIB", "mutations": "K103N + Y181C", "method": "MTT", "result": "5.15 µM"}
{"smiles": "COC(=O)[C@H](Cc1ccccc1)NP(=O)(OC[C@H]1C=C[C@@H](n2ccc3c(N)ncnc32)C1)Oc1ccccc1", "strain or isolate": "IIIB", "method": "cytopathic effect / trypan blue", "result": "0.3 µM"}
{"smiles": "CCCCCCCCCCCCCC(=O)NCC(OCC)OCC", "strain or isolate": "LAV", "result": "<10 µM"}
{"smiles": "CC(=O)c1ccc(N2CCN(c3cc4c(cc3N)c(=O)c(C(=O)O)cn4C)CC2)cc1", "strain or isolate": "IIIB", "method": "cytopathic effect / MTT", "result": ">0.157 µg/mL"}
{"smiles": "COc1ccc(C(=O)/C=C/c2ccc(Br)cc2)c(O)c1", "strain or isolate": "IIIB", "method": "MTT", "result": ">400 µM"}
{"smiles": "Cc1cn(C2CC(N=[N+]=[N-])C(OP(=O)(O)C(=O)NCCc3ccccc3)O2)c(=O)[nH]c1=O", "strain or isolate": "TKV-4046", "method": "p24 / ELISA / antigen", "result": "0.2 µM"}
{"smiles": "O=C(/C=C/c1ccc(O)cc1)c1ccccc1O", "strain or isolate": "IIIB", "method": "MTT", "result": ">400 µM"}
{"smiles": "Cc1cn(C2CC(N=[N+]=[N-])C(OP(=O)(O)C(N)=O)O2)c(=O)[nH]c1=O", "strain or isolate": "TKV-4046", "method": "p24 / ELISA / antigen", "result": "0.6 µM"}
{"smiles": "Cc1cnc(Nc2ccc(C#N)cc2)nc1C(C)(O)c1ccc(F)cc1", "strain or isolate": "IIIB", "mutations": "K103N + Y181C", "method": "MTT", "result": ">38.2 µM"}
{"smiles": "CNc1nc(Nc2ccc(C#N)cc2)nc(Oc2ccc3ccccc3c2)c1C", "strain or isolate": "IIIB", "mutations": "K103N + Y181C", "method": "MTT", "result": ">178 µM"}
{"smiles": "Cc1nc(C(=O)NCCCN=C(N)N)cc2c1[nH]c1ccccc12", "strain or isolate": "IIIB", "method": "cytopathic effect", "result": "≥50 µM"}
{"smiles": "Nc1nc2c(ncn2C2CC(O)C(COP(O)(=S)OC3CC(n4cnc5c(=O)[nH]c(N)nc54)OC3COP(=O)(O)O)O2)c(=O)[nH]1", "strain or isolate": "IIIB", "method": "cytopathic effect / MTT", "result": ">100 µM"}
{"smiles": "CCc1c(NC)nc(Nc2ccc(C#N)cc2)nc1Oc1ccc2ccccc2c1Br", "strain or isolate": "IIIB", "mutations": "WT", "method": "MTT", "result": "0.024 µM"}
{"smiles": "CC(C)[C@H](C)CC[C@](C)(O)[C@H]1C(=O)C[C@H]2[C@@H]3C(=O)C=C4C[C@@H](O)CC[C@]4(C)[C@H]3CC[C@@]21C", "strain or isolate": "NL4-3", "method": "MTT", "result": "0.0876 µM"}
{"smiles": "CC(Oc1nsnc1-c1cccc2ccccc12)C(=O)Nc1ccccc1F", "strain or isolate": "IIIB", "method": "MTT", "result": "22 µM"}
{"smiles": "CCN1CCn2c(nc(C(=O)NCc3ccc(F)cc3)c(O)c2=O)C(N(C)C(=O)C(=O)N(C)C)C1", "method": "p24", "result": "<1 µM"}
{"smiles": "Nc1nc(=O)n([C@H]2CC[C@@H](CO)O2)cc1F", "strain or isolate": "RF", "method": "p24", "result": "0.19 µM"}
{"smiles": "CC1(C)c2nc(C(=O)NCc3ccc(F)cc3)c(O)c(=O)n2CCN1CC(=O)O", "method": "p24", "result": "<1 µM"}
{"smiles": "Cc1cn(CCO[C@H]2C=C[C@@H](CO)O2)c(=O)[nH]c1=O", "strain or isolate": "IIIB", "method": "cytopathic effect / MTT", "result": ">29 µg/mL"}
{"smiles": "CCOP(=O)(/C=C/[C@]1(C(F)(F)F)CC[C@H](n2cnc3c(N)ncnc32)C1)OCC", "method": "MTT", "result": "10.3 µM"}
{"smiles": "Fc1ccccc1Cn1cc(COc2nsnc2-c2cccc3ccccc23)nn1", "strain or isolate": "IIIB", "method": "MTT", "result": ">79 µM"}
{"smiles": "Cc1cc(/C=C/C#N)cc(C)c1Oc1ccnc(Nc2ccc(CN3CCN(S(=O)(=O)N(C)C)CC3)cc2)n1", "mutations": "K103N", "method": "MTT", "result": "0.011 µM"}
{"smiles": "CCc1c(Cl)nc(Nc2ccc(C#N)cc2)nc1Oc1ccc2cc(C#N)ccc2c1Br", "strain or isolate": "IIIB", "mutations": "WT", "method": "MTT", "result": "0.732 µM"}
{"smiles": "Cc1ccnc2c1NC(=O)c1cccnc1N2C1CC1", "strain or isolate": "IIIB", "method": "MTT", "result": "0.14 µM"}
{"smiles": "Cc1nc(C(=O)NCCCN)cc2c1[nH]c1ccccc12", "strain or isolate": "IIIB", "method": "cytopathic effect", "result": ">100 µM"}

8 of the rows above, restated:

Cc1ccnc2c1NC(=O)c1cccnc1N2C1CC1 ; strain or isolate: IIIB ; method: MTT ; result: 0.14 µM
Cc1cc(C#N)cc(C)c1Oc1nc(Nc2ccc(C#N)cc2)nc(N)c1Br ; strain or isolate: IIIB ; method: MTT ; result: 0.003 µM
COc1ccc(C(=O)/C=C/c2ccc(OC)c(OC)c2)c(O)c1 ; strain or isolate: IIIB ; method: MTT ; result: >400 µM
CCc1c(Cl)nc(Nc2ccc(C#N)cc2)nc1Oc1ccc2cc(C#N)ccc2c1Br ; strain or isolate: IIIB ; mutations: WT ; method: MTT ; result: 0.732 µM
Cc1c(-c2c(C)c3c(c(C)c2[C@H](OC(C)(C)C)C(=O)O)CN(C(=O)CC(C)(C)C)C3)cc(F)c2c1CCCO2 ; strain or isolate: IIIB ; method: luciferase ; result: 0.036 µM
CCCCCCCCCCCCCC(=O)NCC(OCC)OCC ; strain or isolate: LAV ; result: <10 µM
COc1ccc2c(c1)c(CC(=O)O)c(C)n2C(=O)c1ccc(Cl)cc1 ; strain or isolate: IIIB ; method: XTT / p24 ; result: 10 µM
Cc1c(Cl)nc(Nc2ccc(C#N)cc2)nc1Oc1ccc2ccccc2c1 ; strain or isolate: IIIB ; mutations: K103N + Y181C ; method: MTT ; result: 19.91 µM